Measurements as given in paper PMC9794196, “Lassa virus glycoprotein nanoparticles elicit neutralizing antibody responses and protection” (2022).
Read-outs that look alike come from different tables or passages of the source.

Key:
[1] = target: GPC-I53-dn5B (GPCysR4, Josiah strain, fused to the I53_dn5B scaffold) (Lassa virus, Josiah strain) (UniProt P08669)
[2] = target: GPC-I53-50A (GPCysR4, Josiah strain, genetically fused to I53-50A.1NT1) (Lassa virus, Josiah strain) (UniProt P08669)
[3] = target: GPC-I53-50A (GPCysR4, Josiah strain, genetically fused to I53-50A.1NT1) (Lassa virus, Josiah strain) (UniProt P08669); remark: listed apart in the source

Substance | stoichiometry N [1] | stoichiometry N [2] | stoichiometry N [3]
GPC-I53-dn5B (GPCysR4, Josiah strain, fused to the I53_dn5B scaffold) (from UniProt P08669 1-424) | 3 | – | –
GPC-I53-50A (GPCysR4, Josiah strain, genetically fused to I53-50A.1NT1) (from UniProt P08669 1-424) | – | 3 | 3
